{
  "sequences": {"note": "Amino acid sequences for entries named in this document (tags omitted).", "UniProt A0A1S5RAG6, entry or part of it, added parts left off": "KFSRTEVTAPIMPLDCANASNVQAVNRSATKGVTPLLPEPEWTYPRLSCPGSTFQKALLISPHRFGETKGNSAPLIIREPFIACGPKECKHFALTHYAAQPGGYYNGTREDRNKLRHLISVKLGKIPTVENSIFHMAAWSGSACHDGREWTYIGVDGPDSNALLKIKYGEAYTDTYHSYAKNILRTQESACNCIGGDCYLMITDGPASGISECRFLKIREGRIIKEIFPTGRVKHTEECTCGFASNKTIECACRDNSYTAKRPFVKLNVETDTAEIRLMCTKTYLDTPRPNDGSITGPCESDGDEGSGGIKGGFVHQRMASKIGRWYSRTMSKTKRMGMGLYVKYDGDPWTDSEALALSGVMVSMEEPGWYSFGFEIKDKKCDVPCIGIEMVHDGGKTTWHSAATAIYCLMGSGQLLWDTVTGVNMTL"},
  "source": "paper PMC6304311",
  "about": "(Influenza and Other Respiratory Viruses, 2018)",
  "key": {"[1]": {"target": "T1, NA from influenza B virus isolates (Influenza B virus, UniProt A0A1S5RAG6)", "settings": "cited from earlier work"}, "[2]": {"target": "T1, NA from influenza B virus isolates", "experiment": "NA-STAR/NA-XTD chemiluminescent neuraminidase inhibition assay, influenza B", "assay_type": "biochemical"}},
  "note": "Where two headings read alike, the source gives them in different places.",
  "data": [
    {"smiles": "CC(=O)N[C@H]1[C@H]([C@H](O)[C@H](O)CO)OC(C(=O)O)=C[C@@H]1N=C(N)N", "note": "[zanamivir]", "values": [
      {"measurement": "susceptibility phenotype of reference virus", "setting": "[1]; B/Memphis/20/1996, R152K (N2 numbering) or R150K (N1 numbering) NA substitution", "result": "resistant"},
      {"measurement": "susceptibility phenotype of reference virus", "setting": "[1]; B/Memphis/20/1996, wild‐type", "result": "susceptible"},
      {"measurement": "Susceptible", "setting": "[2]; Influenza B isolates 2007‐2008", "result": "Yes"},
      {"measurement": "Susceptible", "setting": "[2]; Influenza B isolates 2009‐2013", "result": "susceptible"},
      {"measurement": "Susceptible", "setting": "[2]; Influenza B isolates 2009‐2013, listed as Zanamivir", "result": "Yes"}
    ]}
  ]
}
